Data taken from the supplement of paper PMC9931576.
Human monoclonal antibodies against the spike receptor-binding domain (heavy:light variable regions). IC50 against pseudoviruses bearing the spike of naturally observed variants; lower = stronger; >10 µg/ml means not reached at the top dose. No active / inactive call. The stated detection limit is 0.0005 µg/ml; values near or below 0.001 µg/ml lie at the floor of the assay.

How the values were obtained:
Assay in all cases: pseudovirus neutralization IC50; higher = weaker neutralization
[1] = target: SARS-CoV-2 Omicron BA.1 spike pseudovirus
Method: (§1)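 Single-round VSV luciferase pseudovirus mixed with antibody dilutions for 1 h and put on Huh-7 cells for about a day; IC50 from the dose curve.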

[2] = target: SARS-CoV-2 Omicron BA.2 spike pseudovirus
Method: as §1

[3] = target: SARS-CoV-2 Omicron BA.2.75 spike pseudovirus
Method: as §1

[4] = target: SARS-CoV-2 Omicron BA.2.75.2 spike pseudovirus
Method: as §1

[5] = target: SARS-CoV-2 Omicron BA.5 spike pseudovirus
Method: as §1

[6] = target: SARS-CoV-2 Omicron BM.1.1.1 spike pseudovirus
Method: as §1

[7] = target: SARS-CoV-2 Omicron BQ.1.1 spike pseudovirus
Method: as §1

[8] = target: SARS-CoV-2 Omicron BR.2 spike pseudovirus
Method: as §1

[9] = target: SARS-CoV-2 Omicron CA.1 spike pseudovirus
Method: as §1

[10] = target: SARS-CoV-2 Omicron XBB spike pseudovirus
Method: as §1

[11] = target: SARS-CoV-2 early D614G spike pseudovirus
Method: as §1

Row | Binder | pseudovirus neutralization IC50 [1] | pseudovirus neutralization IC50 [2] | pseudovirus neutralization IC50 [3] | pseudovirus neutralization IC50 [4] | pseudovirus neutralization IC50 [5] | pseudovirus neutralization IC50 [6] | pseudovirus neutralization IC50 [7] | pseudovirus neutralization IC50 [8] | pseudovirus neutralization IC50 [9] | pseudovirus neutralization IC50 [10] | pseudovirus neutralization IC50 [11]
1 | BD57-0332 (protein) chain 1: QLQLQESGPGLVKPSATLSLTCNVSGGSISSSIYWWAWIRQSPGMGLEWIGSIYNNGNTYYNPSLKSRVTILVDTSKNHFSLKVTSVTAQDTAVYFCARHTGGTSLLTGFAPWGQGTLVTVSS chain 2: DIHMTQSPSSVSASVGDRVTITCRASQALSSWLAWYQQRPGKPPTLLIYPASTLQSGVPSRFSGSESGTDFTLTISSLQPEDFATYYCQQANSFPLTFGGGTKVEIK | > 10 µg/mL | > 10 µg/mL | > 10 µg/mL | > 10 µg/mL | > 10 µg/mL | > 10 µg/mL | > 10 µg/mL | > 10 µg/mL | > 10 µg/mL | > 10 µg/mL | > 10 µg/mL
2 | BD56-236 (protein) chain 1: EVQLVQSGAEVKKPGESLKISCEASGYTFTNFWIAWVRQMPGKGLEWMGFIYPGDSDTRYSPSFQGQVTISADKSISTAYLQWSSLKASDTAMYYCARSDYFYDMDVWGQGTTVTVSS chain 2: DIVMTQTPLSLSVTPGQPASISCKSSQSLLQSDGNTYLYWFLQKPGQSPQLLIYEVSSRFSGVPDRFSGSGSGTDFTLKISRVEAEDVGVYYCMQGIHLPPTFGQGTKVEIK | 0.000842 µg/mL | 0.00265 µg/mL | 0.0174 µg/mL | 0.018 µg/mL | 0.00349 µg/mL | 0.0217 µg/mL | 7.8 µg/mL | 0.0298 µg/mL | 0.0157 µg/mL | > 10 µg/mL | > 10 µg/mL
3 | BD56-344 (protein) chain 1: QVNLLQSGTEVKKPGSSMRVTCKTSGGTTYAISWVRQAPGQGLEWMGRVIPLLGRKNYAEKFQDRVTISADNSAGTAFMVLGSLKPDDTGVYYCVRNEGDSSGVSPMPIIWGQGTKVIVSP chain 2: FVLTQPSSVSVSPRQTATITCSGDALKKQYVYWHQQKPGQAPVLVISEDTKRPSGIPARFSGSTSGTVVTLTITAVQSEDEADYYCQSADTDATWVFGGGTRLTVL | 0.0125 µg/mL | 0.189 µg/mL | 0.0797 µg/mL | 1.1 µg/mL | > 10 µg/mL | > 10 µg/mL | > 10 µg/mL | > 10 µg/mL | > 10 µg/mL | > 10 µg/mL | > 10 µg/mL
4 | BD56-351 (protein) chain 1: QVTLRESGPALVKPTQTLTLTCTFSGFSLSTSGMCVSWIRQPPGKALEWLALIDWDDDKYYSTSLKTRLTISKDTSKNQVVLTMTDMDPVDTATYYCARMGAGSREYAMDVWGQGTTVTVSS chain 2: SYELTQPPSVSVSPGQTARITCSGDALPIQYAYWYQQKPGQAPVLVIYKDNERPSGIPERFSGSSSGTTVTLTISAVQAEDEADYYCQSADSSGTYPVVFGGGTKLTVL | 0.0163 µg/mL | 0.965 µg/mL | 0.644 µg/mL | 0.615 µg/mL | 1.87 µg/mL | 0.433 µg/mL | > 10 µg/mL | 0.618 µg/mL | 0.875 µg/mL | > 10 µg/mL | > 10 µg/mL
5 | BD56-353 (protein) chain 1: QVQLVQSGAEVKKPGSSVQVSCKASGGTFSSYAISWVRQAPGQGLEWMGGIIPMFRTAIYAQMFQGRVTITADESTGTAYMELSSLRSEDTALYYCARDSSPRGSRGGIEYFQHWGQGTLVTVSS chain 2: DIQMTQSPSSLSASVGDRVTITCQASQDISNYLNWYQQKPGKAPKLLIYDASNLETGVPSRFSGSGSGTDFTFTISSLQPEDIATYYCQQYDDLLTFGQGTKLQIK | 0.000254 µg/mL | 0.000183 µg/mL | 0.000586 µg/mL | 0.239 µg/mL | 0.266 µg/mL | 4.13 µg/mL | 6.2 µg/mL | 0.0024 µg/mL | 0.28 µg/mL | 3.32 µg/mL | > 10 µg/mL
